Values quoted from earlier work as cited in paper PMC11106745 (ACS Chemical Biology, 2024).

Target: SARS-CoV-2 Mac1 (Severe acute respiratory syndrome coronavirus 2, UniProt P0DTD1)
Conditions: HTRF-based displacement assay; cited from earlier work

Substance: adenosine diphosphate ribose [ADPr, reference compound]
- IC50: ~1000 nM
